Results of unrelated studies side by side (data: NIAID ChemDB).

Shared fields: whole-cell or culture tests; agent: HIV-1; method: MTT / p24; measure: EC50

Lines come from different laboratories, so protocols vary. ECn is the concentration giving n% inhibition of infection, replication or growth. Blank or dashed fields: not listed here.

structure	cells	strain	value
CC(C)[C@H](NC(=O)OCc1ccccc1)C(=O)N[C@@H](Cc1ccccc1)[C@@H](O)[C@@H](NCc1ccc(Cl)cc1)C(=O)N[C@H](C(=O)NCc1nc2ccccc2[nH]1)C(C)C	MT-4	IIIB	0.035 µM
CCC(Cc1ccccc1)c1cc(O)c(C(c2cccc(NC(=O)Cc3ccncc3)c2)C2CC2)c(=O)o1	MT-4	IIIB	>3 µM
CCN[C@H]1CO[C@@H]2OC[C@H](OC(=O)N[C@@H](Cc3cc(F)cc(F)c3)[C@H](O)CN(CC(C)C)S(=O)(=O)c3ccc4nc(NC5CC5)sc4c3)[C@@H]21	MT-4	NL4-3	0.0027 µM
CCCCCCCCCCCCCCCCNc1ccn([C@H]2C[C@H](OP(=O)(O)OC[C@H]3O[C@@H](n4cc(C)c(=O)[nH]c4=O)C[C@@H]3N=[N+]=[N-])[C@@H](CO)O2)c(=O)n1	H9	IIIB	0.05 µM
Cc1cn([C@H]2C[C@H](N=[N+]=[N-])[C@@H](CO)O2)c(=O)[nH]c1=O	MT-2	G910-6	1.7 µg/mL
CC(=O)N[C@@H](CS)C(=O)O	U-937/HIV-1 + U-937	-	>200 µM
CCOP(=O)(N[C@@H](C)C(=O)OC)OC[C@H]1O[C@@H](n2cc(C)c(=O)[nH]c2=O)C[C@@H]1N=[N+]=[N-]	C8166	IIIB	4 µM
Cc1c(-c2cnccn2)ssc1=S	H9	IIIB	~10 µM
COc1ccc(CN[C@@H](C(=O)N[C@H](C(=O)NCc2nc3ccccc3[nH]2)C(C)C)[C@H](O)[C@H](Cc2ccccc2)NC(=O)[C@@H](NC(=O)OCc2ccccc2)C(C)(C)C)cc1	U-937	IIIB	0.0107 µM
Cc1cn([C@H]2C[C@H](N=[N+]=[N-])[C@@H](CO)O2)c(=O)[nH]c1=O	CEM-CD4	-	0.002 µM
COC(=O)[C@H](C)NP(=O)(OC[C@H]1O[C@@H](n2cc(C)c(=O)[nH]c2=O)C[C@@H]1N=[N+]=[N-])OCC(Cl)(Cl)Cl	C8166	IIIB	0.4 µM
COc1ccc(CN[C@@H](C(=O)N[C@H](C(=O)NCc2nc3ccccc3[nH]2)C(C)C)[C@H](O)[C@H](Cc2ccccc2)NC(=O)[C@@H](NC(=O)CCc2ccc(O)cc2)C(C)(C)C)cc1	HuT-78 + HUT 78	IIIB	0.0347 µM
COC(=O)C(C)NP(=O)(OC[C@H]1O[C@@H](n2cc(C)c(=O)[nH]c2=O)C[C@@H]1N=[N+]=[N-])Oc1ccc([N+](=O)[O-])cc1	C8166	IIIB	0.03 µM
CCC(Cc1ccccc1)c1cc(O)c(C(c2cccc(NC(=O)[C@H](Cc3cn(S(=O)(=O)c4ccc(C)cc4)cn3)NC(=O)OC(C)(C)C)c2)C2CC2)c(=O)o1	MT-4	IIIB	>3 µM
COc1ccc(CN[C@@H](C(=O)N[C@H](C(=O)NCc2nc3ccccc3[nH]2)C(C)C)[C@H](O)[C@H](Cc2ccccc2)NC(=O)[C@@H](NC(=O)[C@@](C)(O)c2ccccc2)C(C)(C)C)cc1	MT-4	IIIB	0.0079 µM
Nc1ccn([C@H]2CC[C@@H](CO)O2)c(=O)n1	C8166	IIIB	0.01 µM
CCN[C@H]1CO[C@@H]2OC[C@H](OC(=O)N[C@@H](Cc3ccccc3)[C@H](O)CN(CC(C)C)S(=O)(=O)c3ccc4nc(NC5CC5)sc4c3)[C@@H]21	MT-4	NL4-3	0.0036 µM